Measured values from several laboratories, pooled; numbers as filed in NIAID ChemDB.

Common to all: growth or infection tests; species: Mycobacterium abscessus

Neighbouring rows are from separate reports.

SMILES	strain or isolate	changes	read by	measure	dose	result
CC[C@H]1OC(=O)[C@H](C)[C@@H](O[C@H]2C[C@@](C)(OC)[C@@H](O)[C@H](C)O2)[C@H](C)[C@@H](O[C@@H]2O[C@H](C)C[C@H](N(C)C)[C@H]2O)[C@](C)(OC)C[C@@H](C)C(=O)[C@H](C)[C@@H](O)[C@]1(C)O	CIP 104536		broth dilution	MIC		4 µg/mL
CC(=O)NC[C@H]1CN(c2ccc3c(c2)Oc2ccccc2O3)C(=O)O1			broth dilution / visual reading	MIC90		>64 µg/mL
C/C=C(/C(=O)O)N1C(=O)C=C(C)C1=O			visual reading	EC50		100 µg/mL
NC(=O)c1c(NC(=O)c2c(F)c(F)c(F)c(F)c2F)sc2c1CCOC2			turbidity	EC90		86 µM
CC(C)N=c1cc2n(-c3ccc(Cl)cc3)c3ccccc3nc-2cc1Nc1ccc(Cl)cc1	Clinical isolate		broth dilution	MIC50		≤0.5 µg/mL
CC[C@H]1OC(=O)[C@H](C)[C@@H](O[C@H]2C[C@@](C)(OC)[C@@H](O)[C@H](C)O2)[C@H](C)[C@@H](O[C@@H]2O[C@H](C)C[C@H](N(C)C)[C@H]2O)[C@](C)(O)C[C@@H](C)CN(C)[C@H](C)[C@@H](O)[C@]1(C)O	Clinical isolate MR313367D		broth dilution / visual reading	MIC100		1 µg/mL
CCOC(=O)c1c(NC(=O)c2c(F)c(F)c(F)c(F)c2F)sc2c1CCNC2			resazurin	MIC		1.7 µM
CCOC(=O)c1c(-c2ccccc2)c2ccc(Cl)cc2oc1=O	ATCC 19977		resazurin	MIC90		>100 µg/mL
CCCCCCCCCCCCCCCCCCCCCCCC(=O)NC(CCC(=O)O)(CCC(=O)O)CCC(=O)O	AAy-P-1			MIC		54 µg/mL
C[C@@H](O)[C@H]1C(=O)N2C(C(=O)O)=C(S[C@@H]3CCCN3)S[C@H]12	L948		visual reading	MIC		2 µg/mL
CCCCCCCCCCCCCCCCCC(=O)NC(CCC(=O)O)(CCC(=O)O)CCC(=O)O	AAy-P-1			MIC		144 µg/mL
CCN1CCC[C@H]1SC1=C(C(=O)O)N2C(=O)[C@H]([C@@H](C)O)[C@H]2S1	L948		visual reading	MIC		4 µg/mL
CCCCCCCCCC(CCCCCCCCC)OC(=O)NC(CCC(=O)O)(CCC(=O)O)CCC(=O)O	AAy-P-1			MIC		144 µg/mL
Cc1c(C)c(C)[c-](C)c1C.N[C@H](C(=O)[O-])c1ccccc1.[Cl][Rh+2]	AAy-P-1			MIC		15 µg/mL
CCCCCCCCCCCCCCCCCCOC(=O)NC(C)(CCC(=O)O)CCC(=O)O	AAy-P-1			MIC		18 µg/mL
CCCCCC1=NN(C(=O)CCOC(=O)CCC(=O)O)OC(CCCCC)C1	Clinical Isolate 690	IMP CIP PEN resistant	agar diffusion	zone	200 µg/disc	32 mm
CCCCCCCN1CCc2c(sc(NC(=O)c3c(F)c(F)c(F)c(F)c3F)c2C(=O)OCC)C1			turbidity	EC90		>100 µM
CCCCCCCCCCCCCCCCOC(=O)NC(C)(CCC(=O)O)CCC(=O)O	AAy-P-1			MIC		4.5 µg/mL

Repeating the final 2 entries:

CCCCCCCN1CCc2c(sc(NC(=O)c3c(F)c(F)c(F)c(F)c3F)c2C(=O)OCC)C1 ; read by: turbidity ; measure: EC90 ; result: >100 µM
CCCCCCCCCCCCCCCCOC(=O)NC(C)(CCC(=O)O)CCC(=O)O ; strain or isolate: AAy-P-1 ; measure: MIC ; result: 4.5 µg/mL

Blank or dashed fields: not listed here. A number after MIC or MFC names an inhibition level or a share of isolates. ECn is the concentration giving n% inhibition of infection, replication or growth. Zone: diameter of growth inhibition.